Anti-infective test results gathered from many reports (values: NIAID ChemDB through PubChem).

Common to all: growth or infection tests; organism: Herpes simplex virus 2

ECn is the concentration giving n% inhibition of infection, replication or growth. Blank or dashed fields: not listed here. Rows are shuffled and stem from different studies.

compound	read-out	cells	strain	method	value
Cc1cn(N2C[C@H](CO)[C@H]2CO)c(=O)[nH]c1=O	EC50	VERO		plaque count	>10 µg/mL
Nc1ncnc2c1ncn2N1CC[C@H](CO)[C@H]1CO	EC50	VERO		cytopathic effect	>100 µg/mL
Nc1nc2c(ccn2[C@H]2CO[C@@H](CO)C2)c(=O)[nH]1	EC50	E6SM	G	cytopathic effect	300 µg/mL
CC/C=C/C/C=C/C/C=C/CCCCCCCC(=O)OCC(CO[C@@H]1O[C@H](CO)[C@@H](O)[C@H](O)[C@H]1O)OC(=O)CCCCCCC/C=C/C/C=C/C/C=C/CC	EC50	VERO	186	plaque count	<50 µg/mL
Nc1nc(NCC2CC2)c2ncn(/C=C3/C[C@@H]3CO)c2n1	EC50	HFF		cytopathic effect	>249 µM
Nc1ncnc2c1ncn2[C@@H]1C[C@H](CO)[C@@H](O)[C@@H]1O	EC50	VERO	G	plaque count	50 µM
CCCSc1nc(N)nc2c1ncn2/C=C1/C[C@@H]1CO	EC50	HFF		cytopathic effect	65.9 µM
Nc1nc2c(ncn2C/C=C/CO)c(=O)[nH]1	EC50			cytopathic effect	>100 µg/mL
Nc1nc2c(ncn2N2C[C@H](CO)[C@H]2CO)c(=O)[nH]1	EC50	VERO		cytopathic effect	6.32 µg/mL
Nc1ncnc2c1ncn2C/C=C\CO	EC50			cytopathic effect	>100 µg/mL
O=c1[nH]c(=O)n(C[C@]2(CO)C[C@H]2CO)cc1/C=C/Br	EC50	MRC-5	186	plaque count	0.12 µg/mL
C/C(=N\NC(=S)N(C)C1CCCCC1)c1ccccn1	EC50	BHK-21/4	X-79	plaque count	0.05 µg/mL
Cc1cn(N2C[C@H](CO)[C@H]2CO)c(=O)[nH]c1=O	EC50	VERO		cytopathic effect	>100 µg/mL
Nc1nc2c(ccn2[C@@H]2C[C@H](CO)[C@@H](O)[C@@H]2O)c(=O)[nH]1	MIC				25 µg/mL
Cc1cn(C2C[C@@H](CO)[C@@H](CO)S2)c(=O)[nH]c1=O	EC50	VERO		cytopathic effect	>100 µg/mL
Nc1nc(OCC2CC2)c2ncn(/C=C3/C[C@@H]3CO)c2n1	EC50	HFF		cytopathic effect	171.6 µM
C/C(=N\NC(=S)NC12CC3CC(CC(C3)C1)C2)c1ccccn1	EC50	BHK-21/4	X-79	plaque count	0.15 µg/mL
Nc1nc2c(ncn2COCCO)c(=O)[nH]1	EC50	HFF	16064 8713 (acyclovir-resistant)	cytopathic effect	>50 µg/mL
C#CCNc1nc(N)nc2c1ncn2/C=C1/C[C@@H]1CO	EC50	HFF		cytopathic effect	>370 µM
Nc1nc(Cl)c2ccn([C@H]3CO[C@@H](CO)C3)c2n1	EC50	E6SM	G	cytopathic effect	300 µg/mL
O=c1[nH]c(=O)n([C@H]2C[C@H](O)[C@@H](CO)O2)cc1/C=C/Br	EC50	Primary rabbit kidney cells	LYONS	cytopathic effect	1 µg/mL
O=C(NCc1ccc(Cl)cc1)c1c[nH]c2ccc(CCCO)cc2c1=O	EC50		MS	plaque count	15 µM
Nc1nc2c(ncn2COCCO)c(=O)[nH]1	EC50	VERO			1.38 µg/mL
CCCCCCCCCCCC(=O)OC[C@H](CO[C@@H]1O[C@H](CO)[C@@H](O)[C@H](O)[C@H]1O)OC(=O)CCCCCCCCCCC	EC50	VERO	186	plaque count	40 µg/mL
Nc1ccn([C@H]2C[C@@H](O)[C@H](CO)O2)c(=O)n1	EC50	VERO B	G	cytopathic effect	>10 µM
CC(Sc1ncnc2c1cnn2CCCCO)C(N)=O	EC50	E6SM	G	cytopathic effect	>400 µg/mL
CCCCCCCCCCCCCCCCCCCCCC(=O)OCC(CO[C@@H]1O[C@H](CO)[C@H](O)[C@H](O)[C@H]1O)OC(=O)CCCCCCCCCCCCC	EC50	VERO	186	plaque count	>50 µg/mL
NC(=O)CSc1ncnc2c1cnn2COCCO	EC50	E6SM	G	cytopathic effect	>400 µg/mL
Nc1nc2c(ncn2CCC(CO)CO)c(=O)[nH]1	EC50	HEL	20 clinical isolates	ELISA	2.2 µg/mL
CCCCC/C=C\C/C=C\CCCCCCCC(=O)OCC(CO[C@@H]1O[C@H](CO)[C@@H](O)[C@H](O)[C@H]1O)OC(=O)CCCCCCC/C=C\C/C=C\CCCCC	EC50	VERO	186	plaque count	50 µg/mL
Nc1ncnc2c1ncn2C[C@H]1C[C@H]1CO	EC50			cytopathic effect	>100 µg/mL
CCCCCCCCCCCCCCCCOCCCOP(=O)(O)OCC(CO)CCn1cnc2c(=O)[nH]c(N)nc21	EC50	MRC-5		plaque count	>153 µM
Cc1cn([C@@H]2O[C@H](CO)[C@@H](O)[C@@H]2F)c(=O)[nH]c1=O	EC50	VERO	G-FAU-C2	plaque count	12 µM
Nc1ccn([C@@H]2C[C@H](CO)[C@@H](O)[C@H]2O)c(=O)n1	EC50	PRK	G	cytopathic effect	400 µg/mL
Nc1ccn(C2OC[C@H](CO)[C@H]2CO)c(=O)n1	EC50	VERO		cytopathic effect	>100 µg/mL
O=c1cc(-c2ccc(-c3ccccc3)cc2)oc2ccccc12	EC50	VERO	UW-268		8.6 µg/mL
CC(Sc1ncnc2c1cnn2COCCO)C(N)=O	EC50	E6SM	G	cytopathic effect	>400 µg/mL
CCCCCCCCCCCCCCCCOCCCOP(=O)(O)OCC(CO)OCn1cnc2c(=O)[nH]c(N)nc21	EC50	MRC-5		plaque count	1.5 µM
Cc1cn([C@@H]2O[C@@H](CO)[C@H](O)[C@H]2O)c(=O)[nH]c1=O	EC50	VERO B	G	cytopathic effect	>1000 µM
Nc1ncnc2c1ncn2N1C[C@H](CO)[C@H]1CO	EC50	VERO		cytopathic effect	34.2 µg/mL
C=CCNc1nc(N)nc2c1ncn2/C=C1/C[C@@H]1CO	EC50	HFF		cytopathic effect	>367 µM
O=c1[nH]c(=O)n([C@@H]2O[C@H](CO)[C@@H](O)[C@@H]2F)cc1CO	EC50	VERO	G	plaque count	2.6 µM
C/C(=N\NC(=S)N(C)C1CCCCCC1)c1ccccn1	EC50	BHK-21/4	X-79	plaque count	0.08 µg/mL
O=c1ccn([C@H]2C[C@@H](O)[C@H](CO)O2)c(=O)[nH]1	EC50	VERO B	G	cytopathic effect	>100 µM
Cc1cn([C@@H]2O[C@H](COP(=O)(O)O)[C@@H](O)[C@@H]2O)c(=O)[nH]c1=O	EC50	HELF	UW-268	cytopathic effect	3.2 µg/mL
CN1Cc2cc3ccc4c(c3c(-c3ccc5c(c3)OCO5)c2C1=O)OCO4	EC50				15 µM
Cc1cn(C2SC[C@H](CO)[C@H]2CO)c(=O)[nH]c1=O	EC50	VERO		cytopathic effect	>100 µg/mL
CCCCCCCCCCCCCCCCCCCCCC(=O)OCC(CO[C@@H]1O[C@H](CO)[C@@H](O)[C@H](O)[C@H]1O)OC(=O)CCCCCCCCCCCCCCCCCCCCC	EC50	VERO	186	plaque count	>50 µg/mL
O=C(O)P(=O)(O)O	EC50	VERO	G-FAU-C2	plaque count	26 µM
Nc1ncnc2c1ncn2C1SC[C@H](CO)[C@H]1CO	EC50	VERO		cytopathic effect	>100 µg/mL

7 of the rows above, restated:

compound | read-out | cells | strain | method | value
Nc1nc2c(ncn2CCC(CO)CO)c(=O)[nH]1 | EC50 | HEL | 20 clinical isolates | ELISA | 2.2 µg/mL
CCCCCCCCCCCCCCCCCCCCCC(=O)OCC(CO[C@@H]1O[C@H](CO)[C@H](O)[C@H](O)[C@H]1O)OC(=O)CCCCCCCCCCCCC | EC50 | VERO | 186 | plaque count | >50 µg/mL
CC/C=C/C/C=C/C/C=C/CCCCCCCC(=O)OCC(CO[C@@H]1O[C@H](CO)[C@@H](O)[C@H](O)[C@H]1O)OC(=O)CCCCCCC/C=C/C/C=C/C/C=C/CC | EC50 | VERO | 186 | plaque count | <50 µg/mL
Cc1cn([C@@H]2O[C@H](COP(=O)(O)O)[C@@H](O)[C@@H]2O)c(=O)[nH]c1=O | EC50 | HELF | UW-268 | cytopathic effect | 3.2 µg/mL
Cc1cn(N2C[C@H](CO)[C@H]2CO)c(=O)[nH]c1=O | EC50 | VERO |  | plaque count | >10 µg/mL
C/C(=N\NC(=S)N(C)C1CCCCC1)c1ccccn1 | EC50 | BHK-21/4 | X-79 | plaque count | 0.05 µg/mL
O=c1[nH]c(=O)n(C[C@]2(CO)C[C@H]2CO)cc1/C=C/Br | EC50 | MRC-5 | 186 | plaque count | 0.12 µg/mL